Compound potency records, mixed from different reports. Data source: NIAID ChemDB in PubChem.

Common to all: growth or infection tests; species: Aspergillus fumigatus

MIC50, MIC90 and the like: level of inhibition, or share of isolates inhibited. Percent inhibition refers to the dose given; in toxicity tests it is the harm to the cells. Rows are shuffled and stem from different studies. Blank or dashed fields: not listed here.

smiles,strain or isolate,method,read-out,dose,value
CCC(C)n1ncn(-c2ccc(N3CCN(c4ccc(OC[C@H]5CO[C@](Cn6cncn6)(c6ccc(Cl)cc6Cl)O5)cc4)CC3)cc2)c1=O,AF293,broth dilution,inhibition,64 µg/mL,99.99%
COC(=O)[C@H]1[C@@H]2C[C@@H](O[C@@H]3O[C@H](C)[C@@H](O)[C@H](N)[C@@H]3O)/C=C/C=C/C=C/C=C/C=C/C=C/C=C/[C@H](C)[C@@H](O)[C@H](C)[C@H](C)OC(=O)C[C@H](O)C[C@H](O)[C@@H](O)CC[C@H](O)C[C@H](O)C[C@](O)(C[C@@H]1O)O2,35 isolates,,MIC90,,2 µg/mL
O=c1cc(CO)occ1O,AF293,agar,MIC99,,>12800 µM
CCCCCOc1ccc(-c2ccc(-c3ccc(C(=O)N[C@H]4C[C@@H](O)[C@@H](O)NC(=O)[C@@H]5[C@@H](O)[C@@H](C)CN5C(=O)[C@H]([C@H](C)O)NC(=O)[C@H]([C@H](O)[C@@H](O)c5ccc(O)cc5)NC(=O)[C@@H]5C[C@@H](O)CN5C(=O)[C@H]([C@H](C)O)NC4=O)cc3)cc2)cc1,92-245,,MFC,,>50 µg/mL
Cc1ccc(C(C)C)c(O)c1,F05,,MLC,,0.64 µg/mL
CCC(C)n1ncn(-c2ccc(N3CCN(c4ccc(OC[C@H]5CO[C@](Cn6cncn6)(c6ccc(Cl)cc6Cl)O5)cc4)CC3)cc2)c1=O,MRCM 32552,broth dilution / visual reading,MIC100,,>8 µg/mL
CCC(C)n1ncn(-c2ccc(N3CCN(c4ccc(OC[C@H]5CO[C@](Cn6cncn6)(c6ccc(Cl)cc6Cl)O5)cc4)CC3)cc2)c1=O,19 isolates,,MFC50,,1 µg/mL
O=C(Cn1ccnc1)c1ccc(F)cc1F,,broth dilution,inhibition,100 µg/mL,78%
C[C@H]1[C@H](O)[C@@H](C)/C=C/C=C/C=C/C=C/C=C/C=C/C=C/[C@H](O[C@@H]2O[C@H](C)[C@@H](O)[C@H](N)[C@@H]2O)C[C@@H]2O[C@](O)(C[C@@H](O)C[C@@H](O)CC[C@H](O)[C@@H](O)C[C@@H](O)CC(=O)O[C@H]1C)C[C@H](O)[C@H]2C(=O)O,94 isolates,,MFC90,,2 µg/mL
COc1ccc(C(=O)Cn2ccnc2)cc1,,broth dilution,inhibition,80 µg/mL,46%
C[C@H]1[C@H](O)[C@@H](C)/C=C/C=C/C=C/C=C/C=C/C=C/C=C/[C@H](O[C@@H]2O[C@H](C)[C@@H](O)[C@H](N)[C@@H]2O)C[C@@H]2O[C@](O)(C[C@@H](O)C[C@@H](O)CC[C@H](O)[C@@H](O)C[C@@H](O)CC(=O)O[C@H]1C)C[C@H](O)[C@H]2C(=O)O,Isolate AF65,,MEC,,1 µg/mL
CCC(C)n1ncn(-c2ccc(N3CCN(c4ccc(OC[C@H]5CO[C@](Cn6cncn6)(c6ccc(Cl)cc6Cl)O5)cc4)CC3)cc2)c1=O,,,MLC50,,2 µg/mL
OC(Cn1cncn1)c1ccc(F)cc1F,,broth dilution,inhibition,80 µg/mL,38%
CC(C)C[C@H](N)C(=O)O,MRCM 32208,broth dilution,MFC100,,>18000 µg/mL
CCN1CCC(O)(/C=C/c2ccc(Cl)cc2)C(C(=O)/C=C/c2ccc(Cl)cc2)C1,20 strains,,Mean MIC,,5.54 µg/mL
CCCCCOc1ccc(-c2ccc(-c3ccc(C(=O)N[C@H]4C[C@@H](O)[C@@H](O)NC(=O)[C@@H]5[C@@H](O)[C@@H](C)CN5C(=O)[C@H]([C@H](C)O)NC(=O)[C@H]([C@H](O)[C@@H](O)c5ccc(O)cc5)NC(=O)[C@@H]5C[C@@H](O)CN5C(=O)[C@H]([C@H](C)O)NC4=O)cc3)cc2)cc1,35 isolates,,MFC90,,1 µg/mL

2 of the rows above, restated:

smiles,strain or isolate,method,read-out,dose,value
COC(=O)[C@H]1[C@@H]2C[C@@H](O[C@@H]3O[C@H](C)[C@@H](O)[C@H](N)[C@@H]3O)/C=C/C=C/C=C/C=C/C=C/C=C/C=C/[C@H](C)[C@@H](O)[C@H](C)[C@H](C)OC(=O)C[C@H](O)C[C@H](O)[C@@H](O)CC[C@H](O)C[C@H](O)C[C@](O)(C[C@@H]1O)O2,35 isolates,,MIC90,,2 µg/mL
O=c1cc(CO)occ1O,AF293,agar,MIC99,,>12800 µM